Drawing on paper PMC8628512, this text covers fold lower affinity than toward MD65 for one substance.

Chains of the proteins cited; added tags and fusions are not shown. Where a name states a change or a piece, a line headed by the entry shows the natural chain unless it says otherwise. A line that says so, or that is headed by a name, gives the form on record, which may keep a tag or linker. Residues count along the entry.
UniProt P02745, 23-245: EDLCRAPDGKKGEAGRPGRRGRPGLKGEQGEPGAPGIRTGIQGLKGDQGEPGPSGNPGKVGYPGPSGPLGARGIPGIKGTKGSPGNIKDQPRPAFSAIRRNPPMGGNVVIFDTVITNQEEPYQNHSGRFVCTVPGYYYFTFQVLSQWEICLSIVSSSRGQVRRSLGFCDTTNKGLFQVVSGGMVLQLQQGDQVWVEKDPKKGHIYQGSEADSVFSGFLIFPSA
C1q native protein, UniProt P02746, 28-253: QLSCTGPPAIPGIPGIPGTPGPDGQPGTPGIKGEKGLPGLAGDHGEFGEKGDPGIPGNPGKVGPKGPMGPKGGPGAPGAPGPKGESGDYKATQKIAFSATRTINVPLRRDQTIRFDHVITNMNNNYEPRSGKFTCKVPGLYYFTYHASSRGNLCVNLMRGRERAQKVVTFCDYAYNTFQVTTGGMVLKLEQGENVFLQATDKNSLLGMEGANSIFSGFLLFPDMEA
C1q native protein, UniProt P02747, 29-245: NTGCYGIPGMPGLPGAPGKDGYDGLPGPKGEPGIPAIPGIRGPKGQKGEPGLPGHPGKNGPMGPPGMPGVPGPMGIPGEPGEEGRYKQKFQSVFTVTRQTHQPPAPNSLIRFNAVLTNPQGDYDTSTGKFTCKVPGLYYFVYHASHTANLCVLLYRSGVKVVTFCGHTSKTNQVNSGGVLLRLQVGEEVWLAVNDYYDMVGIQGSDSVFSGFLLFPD
MD65-AG, a-glycosylated (AG) Fc format of MD65 (N297G/S298G/T299A on the YTE backbone) (human), light, as listed by the source, chain 2 of 2: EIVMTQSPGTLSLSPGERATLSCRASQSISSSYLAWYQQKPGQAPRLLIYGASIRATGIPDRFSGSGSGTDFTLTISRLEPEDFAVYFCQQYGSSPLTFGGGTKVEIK
MD65-AG, a-glycosylated (AG) Fc format of MD65 (N297G/S298G/T299A on the YTE backbone) (human), heavy, as listed by the source, chain 1 of 2: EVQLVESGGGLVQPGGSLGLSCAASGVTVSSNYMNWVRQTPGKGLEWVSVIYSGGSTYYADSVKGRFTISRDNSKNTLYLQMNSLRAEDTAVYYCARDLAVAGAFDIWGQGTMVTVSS

The experiment deals with MD65-AG, a-glycosylated (AG) Fc format of MD65 (N297G/S298G/T299A on the YTE backbone) (human). Nature of the experiment: BLI; Octet, 30 °C, 1500 rpm; Fab2G sensors loaded with antibody at 10 µg/mL; C1q native protein 250 nM, 180 s association, 180 s dissociation; MD65-Fab sensor subtracted.

For “C1q native protein (from UniProt P02745 23-245; P02746 28-253; P02747 29-245) (complex)”, the fold lower affinity than toward MD65 amounted to 260 fold.
